# Reference: publication PMC8557866, “Novel Small Molecule Growth Inhibitor Affecting Bacterial Outer Membrane Reduces Extraintestinal Pathogenic Escherichia coli (ExPEC) Infection in Avian Model” (Microbiology Spectrum, 2021)
# Legend:
# [1] = tested on: cecal microbiota of chickens; assay: Effect of GIs on cecal microbiota of chickens (16S rRNA metagenomics); format: in vivo
# [2] = tested on: serum metabolites of chickens; assay: Effect of GIs on serum metabolome of chickens (LC-MS); format: in vivo; conditions: vs NC chickens
# [3] = family level, individual animal 1 of group
# [4] = family level, individual animal 2 of group
# [5] = family level, individual animal 3 of group
# [6] = family level, individual animal 4 of group
# [7] = family level, individual animal 5 of group
smiles,measurement,setting,value
CC(=O)OC(C(Br)C(=O)c1ccc([N+](=O)[O-])cc1)C(Cl)(Cl)Cl (centres unmarked) [GI-10],Clostridia abundance,"[1]; cecum, class level, printed as change 77% to 49%",49%
same,Lachnospiraceae population,"[1]; cecum, family level, printed as change 68% to 36%",36%
same,Clostridiales abundance,"[1]; cecum, order level, printed as change 77% to 49%",49%
same,Proteobacteria abundance,"[1]; cecum, phylum level, printed as change 11% to 29%",29%
same,Firmicutes abundance,"[1]; cecum, phylum level, printed as change 89% to 71%",71%
same,Relative abundance (%) Bacillaceae,[1]; [3],3.2%
same,Relative abundance (%) Bifidobacteriaceae,[1]; [3],0.0%
same,Relative abundance (%) Clostridiaceae 1,[1]; [3],0.0%
same,Relative abundance (%) Enterobacteriaceae,[1]; [3],17.1%
same,Relative abundance (%) Enterococcaceae,[1]; [3],0.0%
same,Relative abundance (%) Erysipelotrichaceae,[1]; [3],21.1%
same,Relative abundance (%) Lachnospiraceae,[1]; [3],40.2%
same,Relative abundance (%) Lactobacillaceae,[1]; [3],0.0%
same,Relative abundance (%) Non-Enterobacteriaceae Gammaproteobacteria,[1]; [3],0.0%
same,Relative abundance (%) Peptostreptococcaceae,[1]; [3],3.6%
same,Relative abundance (%) Ruminococcaceae,[1]; [3],14.6%
same,Relative abundance (%) Unassigned,[1]; [3],0.0%
same,Relative abundance (%) Bacillaceae,[1]; [4],0.0%
same,Relative abundance (%) Bifidobacteriaceae,[1]; [4],0.0%
same,Relative abundance (%) Clostridiaceae 1,[1]; [4],0.0%
same,Relative abundance (%) Enterobacteriaceae,[1]; [4],7.3%
same,Relative abundance (%) Enterococcaceae,[1]; [4],0.0%
same,Relative abundance (%) Erysipelotrichaceae,[1]; [4],33.5%
same,Relative abundance (%) Lachnospiraceae,[1]; [4],54.6%
same,Relative abundance (%) Lactobacillaceae,[1]; [4],0.0%
same,Relative abundance (%) Non-Enterobacteriaceae Gammaproteobacteria,[1]; [4],0.0%
same,Relative abundance (%) Peptostreptococcaceae,[1]; [4],0.0%
same,Relative abundance (%) Ruminococcaceae,[1]; [4],4.4%
same,Relative abundance (%) Unassigned,[1]; [4],0.0%
same,Relative abundance (%) Bacillaceae,[1]; [5],3.3%
same,Relative abundance (%) Bifidobacteriaceae,[1]; [5],0.3%
same,Relative abundance (%) Clostridiaceae 1,[1]; [5],0.0%
same,Relative abundance (%) Enterobacteriaceae,[1]; [5],54.9%
same,Relative abundance (%) Enterococcaceae,[1]; [5],0.0%
same,Relative abundance (%) Erysipelotrichaceae,[1]; [5],23.0%
same,Relative abundance (%) Lachnospiraceae,[1]; [5],13.4%
same,Relative abundance (%) Lactobacillaceae,[1]; [5],0.0%
same,Relative abundance (%) Non-Enterobacteriaceae Gammaproteobacteria,[1]; [5],0.0%
same,Relative abundance (%) Peptostreptococcaceae,[1]; [5],0.0%
same,Relative abundance (%) Ruminococcaceae,[1]; [5],4.8%
same,Relative abundance (%) Unassigned,[1]; [5],0.0%
same,Relative abundance (%) Bacillaceae,[1]; [6],0.0%
same,Relative abundance (%) Bifidobacteriaceae,[1]; [6],0.0%
same,Relative abundance (%) Clostridiaceae 1,[1]; [6],1.4%
same,Relative abundance (%) Enterobacteriaceae,[1]; [6],26.8%
same,Relative abundance (%) Enterococcaceae,[1]; [6],0.0%
same,Relative abundance (%) Erysipelotrichaceae,[1]; [6],8.0%
same,Relative abundance (%) Lachnospiraceae,[1]; [6],46.8%
same,Relative abundance (%) Lactobacillaceae,[1]; [6],4.9%
same,Relative abundance (%) Non-Enterobacteriaceae Gammaproteobacteria,[1]; [6],0.0%
same,Relative abundance (%) Peptostreptococcaceae,[1]; [6],0.0%
same,Relative abundance (%) Ruminococcaceae,[1]; [6],11.8%
same,Relative abundance (%) Unassigned,[1]; [6],0.1%
same,Relative abundance (%) Bacillaceae,[1]; [7],8.2%
same,Relative abundance (%) Bifidobacteriaceae,[1]; [7],0.0%
same,Relative abundance (%) Clostridiaceae 1,[1]; [7],0.0%
same,Relative abundance (%) Enterobacteriaceae,[1]; [7],38.4%
same,Relative abundance (%) Enterococcaceae,[1]; [7],0.0%
same,Relative abundance (%) Erysipelotrichaceae,[1]; [7],0.0%
same,Relative abundance (%) Lachnospiraceae,[1]; [7],25.3%
same,Relative abundance (%) Lactobacillaceae,[1]; [7],4.5%
same,Relative abundance (%) Non-Enterobacteriaceae Gammaproteobacteria,[1]; [7],0.0%
same,Relative abundance (%) Peptostreptococcaceae,[1]; [7],0.0%
same,Relative abundance (%) Ruminococcaceae,[1]; [7],23.4%
same,Relative abundance (%) Unassigned,[1]; [7],0.0%
same,Abundance (%) in cecal microbiota: Anaerostipes,[1]; genus level,1.4%
same,Abundance (%) in cecal microbiota: Anaerotruncus,[1]; genus level,0.0%
same,Abundance (%) in cecal microbiota: Bacillus,[1]; genus level,3.0%
same,Abundance (%) in cecal microbiota: Bifidobacterium,[1]; genus level,0.1%
same,Abundance (%) in cecal microbiota: Blautia,[1]; genus level,0.0%
same,Abundance (%) in cecal microbiota: Butyricicoccus,[1]; genus level,0.0%
same,Abundance (%) in cecal microbiota: CAG-56,[1]; genus level,0.7%
same,Abundance (%) in cecal microbiota: Caproiciproducens,[1]; genus level,0.3%
same,Abundance (%) in cecal microbiota: Clostridioides,[1]; genus level,0.7%
same,Abundance (%) in cecal microbiota: Clostridium sensu stricto 1,[1]; genus level,0.3%
same,Abundance (%) in cecal microbiota: Enterococcus,[1]; genus level,0.0%
same,Abundance (%) in cecal microbiota: Erysipelatoclostridium,[1]; genus level,1.1%
same,Abundance (%) in cecal microbiota: Escherichia -Shigella,[1]; genus level,26.6%
same,Abundance (%) in cecal microbiota: Flavonifractor,[1]; genus level,7.7%
same,Abundance (%) in cecal microbiota: Lachnoclostridium,[1]; genus level,8.1%
same,Abundance (%) in cecal microbiota: Lactobacillus,[1]; genus level,1.9%
same,Abundance (%) in cecal microbiota: Negativibacillus,[1]; genus level,1.6%
same,Abundance (%) in cecal microbiota: Oscillibacter,[1]; genus level,0.8%
same,Abundance (%) in cecal microbiota: Ruminiclostridium 9,[1]; genus level,0.0%
same,Abundance (%) in cecal microbiota: Ruminococcaceae UCG-005,[1]; genus level,0.0%
same,Abundance (%) in cecal microbiota: Ruminococcaceae UCG-014,[1]; genus level,0.4%
same,Abundance (%) in cecal microbiota: Sellimonas,[1]; genus level,0.0%
same,Abundance (%) in cecal microbiota: Shuttleworthia,[1]; genus level,0.0%
same,Abundance (%) in cecal microbiota: Tyzzerella,[1]; genus level,0.4%
same,Abundance (%) in cecal microbiota: UBA1819,[1]; genus level,1.1%
same,Abundance (%) in cecal microbiota: [Clostridium] inoculum group,[1]; genus level,2.8%
same,Abundance (%) in cecal microbiota: [Eubacterium] coprostanoligenes group,[1]; genus level,0.0%
same,Abundance (%) in cecal microbiota: [Ruminococcus] gauvreauii group,[1]; genus level,0.03%
same,Abundance (%) in cecal microbiota: [Ruminococcus] torques group,[1]; genus level,13.9%
same,Microbial richness,"[1]; vs GI-7-treated, PC and NC groups, P < 0.05",higher
same,Fold change: 2-Oxo-butanote,[2],2.9
same,Fold change: 2′-Deoxyinosine,[2],1.3
same,Fold change: 3-Mercaptopyruvate,[2],1.9
same,Fold change: 3-Methoxy-4-hydroxyphenylglycoaldehyde,[2],1.3
same,Fold change: 4-(3-Pyridyl)-butanoate,[2],1.9
same,Fold change: 4-Hydroxy-4-(3-pyridyl)-butanoate,[2],1.3
same,Fold change: 4-Imidazolacetate,[2],1.3
same,"Fold change: 4S-Hydroperoxy,17R-H-docosahexaenoate",[2],1.2
same,Fold change: 5-Amino-1-(5-phospho-D-ribosyl)imidiazole-4-carboxamide,[2],3.3
same,"Fold change: 7S-Hydroperoxy,17R-H-docosahexaenoate",[2],1.2
same,Fold change: (S)-Methylmalonate-semialdehyde,[2],2.9
same,Fold change: Acetoacetate,[2],2.9
same,Fold change: Aspirin triggered resolvin D4,[2],1.2
same,Fold change: Aspirin-triggered resolvin D1,[2],1.2
same,Fold change: Aspirin-triggered resolvin D2,[2],1.2
same,Fold change: Aspirin-triggered resolvin D3,[2],1.2
same,Fold change: Coproporphyrinogen III,[2],2.9
same,Fold change: Cytidine,[2],2.6
same,Fold change: D-Sorbitol,[2],1.3
same,Fold change: Geranyl diphosphate,[2],5.4
same,Fold change: Homovanillate,[2],1.3
same,Fold change: IMP,[2],1.6
same,Fold change: Inosine,[2],2.4
same,Fold change: L-Arginine,[2],2.7
same,Fold change: L-Lysine,[2],2.2
same,Fold change: Nicotine-glucuronide,[2],1.5
same,Fold change: Sucrose,[2],2.6
same,Fold change: Thymine,[2],1.3
same,Fold change: Thyronamine,[2],2.4
same,Fold change: Uracil,[2],1.6
same,Fold change: Urate,[2],3.0
same,Fold change: Xanthine,[2],3.7
same,Fold change: Xanthosine,[2],5.6
same,"Fold change: α,α-Trehalose",[2],2.6
same,Fold change: β-Nicotinate D-ribonucleotide,[2],5.4
same,Fold change: L-Saccharopine,[2]; first listing in Table 3,3.0
